PubChem BioAssay AID624099 | ICCB-Longwood – 2012
Assay: 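Host factors E2 relies on to silence an HPV18 LCR reporter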 (primary screen). Cells: human C33A cervical carcinoma cells (HPV-negative) stably expressing BPV1 E2 and an HPV18 LCR luciferase reporter. Knock-down reagent: siRNA pool against human genes, 40 nM. Time to read-out: 72 h. Measured: 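HPV18 LCR reporter light per well, converted to plate-wise z-scores that exclude control wells, and averaged over triplicate plates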. Reading the numbers: mean z-score and z-score: higher = stronger reporter signal, weaker E2 silencing. Rule for the call: 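Hit if mean z-score reaches 2 and two or more of three replicate z-scores also reach 2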.
The whole screen tested about 21,000 reagents; below is a part drawn at random. 497 of all reagents (2.4%) were called active. 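Higher z means weaker E2 silencing; only reporter increases were scored, and knock-downs that hurt cell survival may mask genuine repressor factors.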 A number with no mark means an inactive call.

{"Target gene":"CIDEC (cell death inducing DFFA like effector c)","mean z-score":0.72,"z-score, replicate A":0.28,"z-score, replicate B":0.54,"z-score, replicate C":1.34}
{"Target gene":"DPP4 (dipeptidyl peptidase 4)","mean z-score":0.19,"z-score, replicate A":0.06,"z-score, replicate B":0.1,"z-score, replicate C":0.4}
{"Target gene":"SPINDOC (spindlin interactor and repressor of chromatin binding)","mean z-score":-0.12,"z-score, replicate A":0.14,"z-score, replicate B":-0.38}
{"Target gene":"ASB14 (ankyrin repeat and SOCS box containing 14)","mean z-score":-0.07,"z-score, replicate A":-0.44,"z-score, replicate B":-0.19,"z-score, replicate C":0.42}
{"Target gene":"JUND (JunD proto-oncogene, AP-1 transcription factor subunit)","mean z-score":-0.58,"z-score, replicate A":-0.32,"z-score, replicate B":-0.79,"z-score, replicate C":-0.64}
{"Target gene":"SANBR (SANT and BTB domain regulator of CSR)","mean z-score":-0.26,"z-score, replicate A":-0.28,"z-score, replicate B":-0.2,"z-score, replicate C":-0.3}
{"Target gene":"SFT2D3 (SFT2 domain containing 3)","mean z-score":-0.07,"z-score, replicate A":0.27,"z-score, replicate B":-0.45,"z-score, replicate C":-0.03}
{"Target gene":"SOSTDC1 (sclerostin domain containing 1)","mean z-score":1.31,"z-score, replicate A":1.46,"z-score, replicate B":1.4,"z-score, replicate C":1.06}
{"Target gene":"B3GALT2 (beta-1,3-galactosyltransferase 2)","mean z-score":-1.58,"z-score, replicate A":-1.58,"z-score, replicate B":-1.7,"z-score, replicate C":-1.46}
{"Target gene":"ENPP2 (ectonucleotide pyrophosphatase/phosphodiesterase 2)","mean z-score":0.57,"z-score, replicate A":0.11,"z-score, replicate B":0.83,"z-score, replicate C":0.76}
{"Target gene":"EPC2 (enhancer of polycomb 2)","mean z-score":-0.83,"z-score, replicate A":-0.72,"z-score, replicate B":-0.99,"z-score, replicate C":-0.8}
{"Target gene":"CSTB (cystatin B)","mean z-score":-1.27,"z-score, replicate A":-1.21,"z-score, replicate B":-1.38,"z-score, replicate C":-1.21}
{"Target gene":"RPH3A (rabphilin 3A)","mean z-score":-2.33,"z-score, replicate A":-2.03,"z-score, replicate B":-2.5,"z-score, replicate C":-2.47}
{"Target gene":"HECTD2 (HECT domain E3 ubiquitin protein ligase 2)","mean z-score":-0.77,"z-score, replicate A":-1.03,"z-score, replicate B":-1.27,"z-score, replicate C":0.01}
{"Target gene":"ZNF638 (zinc finger protein 638)","mean z-score":-0.44,"z-score, replicate A":-0.39,"z-score, replicate B":-0.68,"z-score, replicate C":-0.26}
{"Target gene":"ZDHHC14 (zDHHC palmitoyltransferase 14)","mean z-score":0.22,"z-score, replicate A":-0.04,"z-score, replicate B":0.22,"z-score, replicate C":0.47}
{"Target gene":"CGA (glycoprotein hormones, alpha polypeptide)","mean z-score":-0.14,"z-score, replicate A":-0.06,"z-score, replicate B":-0.1,"z-score, replicate C":-0.27}
{"Target gene":"LOC150371 (retired record)","mean z-score":0.19,"z-score, replicate A":0.29,"z-score, replicate B":0.34,"z-score, replicate C":-0.07}
{"Target gene":"SLC34A1","mean z-score":-0.14,"z-score, replicate A":0.27,"z-score, replicate B":-0.27,"z-score, replicate C":-0.41}
{"Target gene":"CDCP2 (CUB domain containing protein 2)","mean z-score":0.61,"z-score, replicate A":0.73,"z-score, replicate B":0.41,"z-score, replicate C":0.68}
{"Target gene":"TEX14 (testis expressed 14, intercellular bridge forming factor)","mean z-score":-0.37,"z-score, replicate A":-0.26,"z-score, replicate B":-0.58,"z-score, replicate C":-0.26}

As entered above:
JUND (JunD proto-oncogene, AP-1 transcription factor subunit), z-score, replicate C → -0.64
Result of CDCP2 (CUB domain containing protein 2) under “z-score, replicate A”: 0.73
Value of EPC2 (enhancer of polycomb 2) in “mean z-score”: -0.83
